Measured values: article doi:10.1101/2020.09.01.277368v1

Tested on: CC(=O)SCCNC(=O)CCNC(=O)[C@H](O)C(C)(C)COP(=O)(O)OP(=O)(O)OC[C@H]1O[C@@H](n2cnc3c(N)ncnc32)[C@H](O)[C@@H]1OP(=O)(O)O
Experiment: purified protein

MetA (HSAT, homoserine acetyl transferase, Rv3341) (Mycobacterium tuberculosis H37Rv)
Km: 328 µM
